# Percent effect of library compounds

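Phenotypic screen: M. tuberculosis growth, glucose 7H9 medium, 3 days; the read-out is not stated. Tested at 500 µM. Direction is inferred from retests: higher values go with more growth inhibition. Size under these conditions: about 18,000 compounds, about 1,400 of them at 50% or above in at least one test.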

Each number is a percent effect as filed.
The controls that fix the scale are not given in the record; negative values are as filed.
This is part of a subset picked to be rich in strong results.

SMILES,percent effect
CC(COCC(F)(F)F)NC(=O)c1cccnc1O (stereo not shown),18.66
c1cn(CCNC2CCSCC2)cn1,20.27
CCn1c(C)nnc1SCC(=O)Nc1nccs1,-4.281
NCC(=O)N1CCC(C(N)=O)CC1,2.883
OCCNCCNCc1ccc(-c2cccc(Cl)c2)o1,83.53
CN(C)[C@@H]1CN(C(=O)c2ccccc2)C[C@H]1CO,-6.155
CC(=O)N1CCN(Cc2cccc(N)n2)CC1,12.88
CCC(CC)N(C)C(=O)CNC(=O)C1CC1,13.12
CNCCN(C)C(=O)c1cc(F)ccc1C,-5.903
O=C(NCCNCc1ccccc1)c1ccco1,2.669
CCN(CC)C(=O)c1cc(N(C)S(C)(=O)=O)ccc1Cl,25.1
CSc1ncc(C(=O)NCC2CCOC2)cn1 (stereo not shown),20.05
NCc1cc(Oc2cccc(F)c2)ccn1,59.25
COCc1ccccc1CNC(=O)Nc1ncnn1C,9.52
CC1CN(C)CCN1CC(=O)N1CCc2sccc2C1 (stereo not shown),20.16
CS(=O)(=O)NC1CCN(C(=O)c2cncc(F)c2)CC1,-1.694
NCc1ccccc1-n1cccn1,64.85
Cc1cnc(C#N)cc1Cl,1.723
CC(=O)N(C)CC(=O)NCc1nnc2ccccn12,-5.451
CN(C)S(=O)(=O)CCCN1CCC1c1ccc(F)cc1 (stereo not shown),11.61
COc1ccc(Nc2ncccc2S(N)(=O)=O)cc1,45.26
CCC(=O)c1cccc(S(=O)(=O)NC(CN)C2CC2)c1 (stereo not shown),56.09
CCC[C@H]1CN(C(=O)c2scnc2C)C[C@@H]1N,5.87
CCCNC(=O)CSc1nnc(NCC2CCCO2)s1 (stereo not shown),10.77
N#Cc1cc(N2CCC[C@@H]2CO)nc2ccccc12,-8.595
Cc1cccnc1NC(=O)CCc1cnn(C)c1,-41.06
c1ccc(CN2CCCCC2CN2CCOCC2)nc1 (stereo not shown),0.5323
CS(=O)(=O)N1CC(CN)C1,-7.905
CN1CCCCC1C(=O)N1CCOC2(CCCC2)C1 (stereo not shown),1.385
COc1ccc2c(c1)OCC(CNC(=O)CN(C)C)C2 (stereo not shown),61.32
NCCS(=O)(=O)N1CCc2ccccc21,77.9
Nc1ccc(C(=O)N2C[C@H](O)[C@@H](N3CCCC3)C2)cn1,-3.855
CN(CCCOc1ccc(C#N)cc1)CC(N)=O,9.33
Cc1ccc(C(=O)NCCCn2ccnc2)s1,10.68
CN(CC(C)(C)O)C(=O)NCC[S+]([O-])c1ccccc1 (stereo not shown),-0.000853
CN(C)C(=O)c1ccc(OCC2CCCO2)cc1 (stereo not shown),-0.2216
CCSC1CCCCN(CCCNC(C)=O)C1 (stereo not shown),12.65
CS(=O)(=O)NCC1CCCCC1,29.57
Cc1cc(C(=O)NC(C)(CO)CO)nc2ccccc12,-0.04366
Cc1nnc(SCCCNC(=O)c2csnn2)s1,1.969
Cc1nc(C)c(CC(=O)NCC(C)C)c(=O)[nH]1,-15.05
NCCCC1(O)CCC1,4.486
N#Cc1cccc(OCCn2cnc(C#N)n2)c1,55.93
CC(=O)c1ccc(S(C)(=O)=O)c(N(C)CCC2CC2)c1,-7.17
CC(=O)Nc1ccccc1CN(C)Cc1nccn1C,8.73
CNC(=O)CCNC(=O)c1sc2ccccc2c1C,39.01
COC(=O)c1cc(NC(=O)CN(C)C)ccc1C,30.4
CC(=O)c1c[nH]c(C(=O)NCc2cnn(C)c2C)c1,-8.168
CC(N)c1nc(-c2ccc(Br)cc2)c[nH]1 (stereo not shown),91.69
Cc1csc(N2CCCN(C(=O)c3cnsn3)CC2)n1,51.92
COc1ccc(C)cc1NC(=O)Cn1ccnc1,38.48
CC(C)c1cccc(CN[C@H](CO)C(C)C)n1,57.7
Nc1cncc(-c2ccc(CN3CCCCC3)cn2)c1,-1020
CCC1(CNCc2ccc3c(c2)OCO3)COC1,11.6
COCCN(Cc1ccsc1)C(=O)CC1CCNC1 (stereo not shown),65.31
CNCc1csc(C)n1,16.66
NS(=O)(=O)c1csc2ccccc12,31.23
COc1ccc(C(C)=O)cc1CN1CCCCC1,-3.785
CN1CCCN(Cc2nc(C3CCOC3)no2)CC1 (stereo not shown),-2.574
CC(C)OCCC1(N)CC1,15.29
CCNC(=O)c1cc(N2CCCC(C)CC2)ccn1 (stereo not shown),57.96
CN1CC(CO)C2(CCNCC2)C1 (stereo not shown),-1.124

The first 4 entries again:

{"smiles": "CC(COCC(F)(F)F)NC(=O)c1cccnc1O", "stereo": "stereo not shown", "percent effect": 18.66}
{"smiles": "c1cn(CCNC2CCSCC2)cn1", "percent effect": 20.27}
{"smiles": "CCn1c(C)nnc1SCC(=O)Nc1nccs1", "percent effect": -4.281}
{"smiles": "NCC(=O)N1CCC(C(N)=O)CC1", "percent effect": 2.883}

Data taken from ChEMBL document CHEMBL3988442, “University of Dundee, Small-Polar-MMV Screening Library” (2021).